Molecular target: T1, African swine fever virus major capsid protein p72 (African swine fever virus), P22776
T1 chain: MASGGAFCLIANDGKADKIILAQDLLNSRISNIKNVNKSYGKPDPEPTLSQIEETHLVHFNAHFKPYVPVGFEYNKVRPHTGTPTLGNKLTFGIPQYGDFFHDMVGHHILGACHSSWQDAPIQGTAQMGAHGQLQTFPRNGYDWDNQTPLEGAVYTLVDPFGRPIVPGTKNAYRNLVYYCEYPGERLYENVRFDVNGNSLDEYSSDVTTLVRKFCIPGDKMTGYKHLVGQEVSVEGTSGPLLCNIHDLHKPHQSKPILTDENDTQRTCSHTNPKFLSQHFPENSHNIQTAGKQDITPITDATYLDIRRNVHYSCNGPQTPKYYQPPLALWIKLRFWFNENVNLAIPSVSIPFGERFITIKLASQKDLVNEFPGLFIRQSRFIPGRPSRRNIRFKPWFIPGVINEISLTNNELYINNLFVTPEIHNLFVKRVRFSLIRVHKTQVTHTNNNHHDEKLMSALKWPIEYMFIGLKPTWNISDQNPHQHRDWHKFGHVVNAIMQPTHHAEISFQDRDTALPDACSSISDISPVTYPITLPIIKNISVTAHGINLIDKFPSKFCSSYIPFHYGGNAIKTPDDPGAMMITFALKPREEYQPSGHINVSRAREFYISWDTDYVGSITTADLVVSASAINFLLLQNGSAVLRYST
Experiment: cryo-EM structure
Details: remark: other sources report otherwise

B1: African swine fever virus major capsid protein p72, P22776 1-646 (natural protein)
chain: T1 chain
**Q.** B1 was tested. Which stoichiometry N did it give?
**A.** 3

From paper PMC6889146, “Structure of the African swine fever virus major capsid protein p72” (2019)
